Measured values taken from publication PMC7700585, “Mechanistic Insights into the Allosteric Regulation of the Clr4 Protein Lysine Methyltransferase by Autoinhibition and Automethylation” (International Journal of Molecular Sciences, 2020).

The chains behind the UniProt entries cited, without tags or fusion partners.
UniProt O60016, whole entry A454R: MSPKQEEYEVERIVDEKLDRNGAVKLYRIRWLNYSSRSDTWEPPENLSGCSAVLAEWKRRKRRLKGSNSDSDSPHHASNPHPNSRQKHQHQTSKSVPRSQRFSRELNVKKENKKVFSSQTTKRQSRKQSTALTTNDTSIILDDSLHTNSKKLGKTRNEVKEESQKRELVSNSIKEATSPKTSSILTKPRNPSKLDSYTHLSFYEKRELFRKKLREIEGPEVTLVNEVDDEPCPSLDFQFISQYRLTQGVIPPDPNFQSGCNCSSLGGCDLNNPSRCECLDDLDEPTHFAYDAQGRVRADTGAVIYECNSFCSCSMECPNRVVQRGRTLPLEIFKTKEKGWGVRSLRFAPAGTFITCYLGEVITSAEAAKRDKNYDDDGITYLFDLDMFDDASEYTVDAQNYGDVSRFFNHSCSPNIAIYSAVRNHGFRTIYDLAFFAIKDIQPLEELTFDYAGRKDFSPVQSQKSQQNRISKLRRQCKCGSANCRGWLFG

Key:
[1] = molecular target: T1, Clr4 wild type, SUMO- and His-tagged full-length (S. pombe, UniProt O60016 1-490); assay: enzyme inhibition kinetics (inhibition of Clr4 automethylation by histone peptide, radioactive methyltransferase assay); 0.3 µM Clr4, 25–400 µM peptide, 0.76 µM radioactively labeled AdoMet, 50 mM Tris pH 8.8, 10 mM MgCl2, 20 mM KCl, 1 mM DTT, 1 h at 30 °C; Tricine-SDS-PAGE and autoradiography; globally fitted to a simple inhibitor binding model; conditions: both partners purified
T1 construct: Clr4, histone H3 lysine 9 methyltransferase of Schizosaccharomyces pombe, 490 amino acids, full length; also called Clr4 WT; WT Clr4; source: E. coli BL21-CodonPlus (DE3), purified (Ni-NTA, size exclusion chromatography)

[2] = molecular target: T2, Clr4 A454R mutant, SUMO- and His-tagged full-length (S. pombe, UniProt O60016 1-490, A454R); assay: as above; conditions: both partners purified
T2 construct: Clr4, histone H3 lysine 9 methyltransferase of Schizosaccharomyces pombe, 490 amino acids, full length, with A454R in the autoregulatory loop; source: E. coli BL21-CodonPlus (DE3), purified (Ni-NTA, size exclusion chromatography)

B1: H3K9me1-biotin (1–18) peptide (peptide, UniProt P68431 2-19, looked up)
peptide: ARTKQTARKSTGGKAPRK
modifications: monomethyl-lysine at 9; biotin (end not stated)
notes: histone H3, residues 1-18, monomethylated at K9; also called monomethylated H3K9 peptide; source: synthetic peptide, bought: Intavis AG
Question: For B1, which Ki [1] is on record?
Answer: 24.6 µM

Question: And the Ki [2]?
Answer: 11.5 µM
